For this series, the system named is E. coli K1 strain RS218. Briefly: Mouse model of experimental hematogenous E. coli meningitis (5-LO-/- and wild-type 129SvEv mice). The format is in vivo. The note with it: wild type mice; oral 400 μg/mouse one hour before bacterial injection; compared to vehicle control. From the text: Female 5-LO−/− (129-Alox5^tm1Fun/J) and strain-matched (129SvEv) wild-type mice, 9˜12 week old and 18˜26 gm, were used (23). […] Most animals receiving 1×10^7 CFUs, however, died between one and two hour of intravenous inoculation. Based on these observations, we examined and compared E. coli K1 penetration into the brain at one hour following intravenous administration of 1×10^7 CFUs of strain RS218 in 5-LO−/− and wild type mice.
Mice were anesthetized with pentobarbital sodium given subcutaneously at 50 mg/kg and each mouse received 1×10^7 CFU of E. coli RS218 in 100 μl PBS via the tail vein. One hour later, mouse chest was cut open, and blood from right ventricle was collected and plated for bacterial counts (CFUs). The mouse was, then, perfused with a mammalian Ringer's solution by transcardiac perfusion through a 23-gauge needle inserted into the left ventricle of the heart under the perfusion pressure of about 100 mmHg. The perfusate exited through a cut in the right atrium. The composition of the mammalian Ringer solution was: (in mM) 132 NaCl, 4.6 KCl, 2 CaCl2, 1.2 MgSO4, 5.5 glucose, 5.0 NaHCO3, and 20 HEPES and Na-HEPES, containing 10 mg/ml BSA; pH of the Ringer solution was maintained at 7.40-7.45 by adjustment of the ratio of Na-HEPES to HEPES. […] Bacterial penetration into the brain was also expressed as (brain CFUs per gm/blood CFUs per ml)×100. […]

Regarding `CN(C)C(=O)CCSC(SCCC(=O)O)c1cccc(/C=C/c2ccc3ccc(Cl)cc3n2)c1` (stereo not shown) [MK571], the “bacterial counts in the blood, spleens and kidneys” value is “did not affect the bacterial counts in the blood, spleens and kidneys”.

(Values after patent US8980917B2, “Methods for treating or preventing brain infections” (The Johns Hopkins University, priority 2008, dated 2015).)
